Anti-infective test results gathered from many reports (values: NIAID ChemDB through PubChem).

ICn is the concentration giving n% inhibition. Inhibition is in % at the dose shown (toxicity tests: loss of growth or viability). Lines come from different laboratories, so protocols vary. Fold resistance: result on the changed form divided by that on wild type. ECn: concentration that inhibits the pathogen or its effect by n%. Blank or dashed fields: not listed here. MIC50, MIC90 and the like: level of inhibition, or share of isolates inhibited.

Nc1nc2c(ncn2[C@H]2CC[C@@H](COP(=O)(O)OP(=O)(O)OP(=O)(O)O)O2)c(=O)[nH]1 ; kind: target ; read-out: IC50 ; species: HIV ; read by: nucleotide incorporation / radiometric ; target: Reverse transcriptase ; changes: RT-N137S ; result: 0.39 µM
CC1(C)C2CC[C@@H](CNc3nnc(NC(=O)c4ccc5c(c4)C(=O)OC5=O)s3)C1C2 ; kind: target ; read-out: IC50 ; species: Human cytomegalovirus ; target: Polymerase ; result: <25 µM
COc1cc(C[C@H](C)[C@H](C)Cc2ccc(O)c(O)c2)ccc1O ; kind: culture ; read-out: MIC50 ; species: Candida lusitaniae ; read by: broth dilution ; strain: CCC 131-2000 ; result: 62.5 µg/mL
C#CC[C@@H](C(=O)N[C@H](/C=C/C(=O)OCC)C[C@@H]1CCNC1=O)n1cccc(NC(=O)c2cc(C)on2)c1=O ; kind: culture ; read-out: EC50 ; species: Rhinovirus ; cell line: H1-HELA ; read by: cytopathic effect / XTT ; strain: Serotype 39 ; result: 0.102 µM
O=C(/C=C/c1ccccc1)Nc1nnc(NCc2ccncc2)s1 ; kind: target ; read-out: IC50 ; species: Human cytomegalovirus ; target: Polymerase ; result: <25 µM
CC(C)=CCN1c2cc(Cl)cc3[nH]c(=S)n(c23)C[C@@H]1C ; kind: culture ; read-out: EC95 ; species: HIV-1 ; cell line: MT-4 ; changes: RT-D67N K70R T215Y K219Q ; result: 0.05 µM
CCOC(=O)Nc1cc2oc(=O)c(-c3ccccc3)nc2c(N)n1 ; kind: culture ; tested at: 0.001 µg/mL ; read-out: inhibition ; species: Encephalitozoon intestinalis ; cell line: RK-13 ; result: 11.1%
O=C(c1ccccc1Cl)N1C[C@H](CN2CCC(O)(CCCc3ccc(-c4nn[nH]n4)cc3)CC2)[C@@H](c2ccccc2)C1 ; kind: target ; read-out: IC50 ; read by: radiometric ; target: CCR5 ; changes: CCR5-Y108A ; result: 0.15 µM
CC(C)=CCOc1cc(NC(=S)c2ccoc2C)ccc1Cl ; kind: target ; read-out: IC50 ; species: HIV ; read by: nucleotide incorporation / radiometric ; target: Reverse transcriptase ; changes: RT-N137A ; result: 0.03 µM
C=CCN(C(=O)OCc1ccc([N+](=O)[O-])cc1)C1CCN(CC[C@](C)(CN(C)S(=O)(=O)c2ccccc2)c2ccccc2)CC1 ; kind: target ; read-out: IC50 ; read by: radiometric ; target: CCR5 ; result: 0.0017 µM
CCSCCNc1nnc(NC(=O)c2ccc(I)cc2)s1 ; kind: target ; read-out: IC50 ; species: Human cytomegalovirus ; target: Polymerase ; result: <25 µM
Cc1cn([C@@H]2O[C@H](CO[Si](C)(C)C(C)(C)C)[C@@]3(OS(=O)(=O)C=C3N)[C@H]2O[Si](C)(C)C(C)(C)C)c(=O)[nH]c1=O ; kind: target ; read-out: IC50 ; species: HIV ; read by: nucleotide incorporation / radiometric ; target: Reverse transcriptase ; changes: RT-N137S ; result: 1 µM
CCSCCNc1nnc(NC(=O)c2cc3ccccc3s2)s1 ; kind: target ; read-out: IC50 ; species: Human cytomegalovirus ; target: Polymerase ; result: >25 µM
CCO/N=C/c1ccc(OCCC2CCN(c3ccc(C)nn3)CC2)cc1 ; kind: culture ; read-out: EC50 ; species: Rhinovirus ; cell line: KB ; read by: neutral red ; strain: 2268-CV37 (ICAM-1 receptor group 60) ; result: 0.082 µM
CC(C)c1cc(C(C)C)c(C(=O)Nc2nnc(NC3CCCCCC3)s2)c(C(C)C)c1 ; kind: target ; read-out: IC50 ; species: Human cytomegalovirus ; target: Polymerase ; result: >25 µM
CN(CC(C)(CCN1CCC(N(CCO)C(=O)OCc2ccc([N+](=O)[O-])cc2)CC1)c1ccsc1)S(=O)(=O)c1ccccc1 ; kind: target ; read-out: fold resistance ; read by: radiometric ; target: CCR5 ; changes: CCR5-E283A ; result: >5000

The last 2 rows once more:

compound,kind,tested at,read-out,species,cell line,read by,target,strain,changes,result
CC(C)c1cc(C(C)C)c(C(=O)Nc2nnc(NC3CCCCCC3)s2)c(C(C)C)c1,target,-,IC50,Human cytomegalovirus,-,-,Polymerase,-,-,>25 µM
CN(CC(C)(CCN1CCC(N(CCO)C(=O)OCc2ccc([N+](=O)[O-])cc2)CC1)c1ccsc1)S(=O)(=O)c1ccccc1,target,-,fold resistance,-,-,radiometric,CCR5,-,CCR5-E283A,>5000